Experimental data reported in US8101573.

Tests used:
[1] = target: Rat α3β2 nAChR (rat), P04757; test: cell-based or functional assay
[2] = target: Rat α4β2 nAChR (rat), P09483; test: cell-based or functional assay
[3] = target: Mouse CNS α-MII site (native [125I]α-conotoxin MII-binding nAChRs in mouse brain homogenates) (mouse), Q9R0W9
[4] = target: Rat α6/α3β2β3 nAChR (rat), P43143; test: cell-based or functional assay
[5] = target: Rat α4β4 nAChR (rat), P09483; test: cell-based or functional assay
[6] = target: Rat α2β2 nAChR (rat), P12389; test: cell-based or functional assay
[7] = target: Rat α6/α3β2 nAChR (rat), P43143; test: cell-based or functional assay
[8] = target: Rat α3β4 nAChR (rat), P04757; test: cell-based or functional assay
[9] = target: Rat α2β4 nAChR (rat), P12389; test: cell-based or functional assay
[10] = target: Rat α6/α3β4 nAChR (rat), P43143; test: cell-based or functional assay
[11] = target: Rat α7 nAChR (rat), Q05941; test: cell-based or functional assay

B1: α-Conotoxin MII analog E11A; L15A (peptide)
peptide: GCCSNPVCHLAHSNAC
modifications: not checked
Q: With B1 as the binder, how does the IC50, block of ACh-induced current in X. laevis oocytes [1] read?
A: 50.1 nM

Q: What about the Ratio: IC50 α3β2/IC50 α6/α3β2β3 [1] of the same binder?
A: 121

B2: α-Conotoxin MII analog L15A (peptide)
peptide: GCCSNPVCHLEHSNAC
modifications: not checked
Q: With B2 as the binder, how does the IC50 Rat α3β2, functional block of ACh-induced current [1] read?
A: 34 nM

Q: What about the Ratio: IC50 α3β2/IC50 α6/α3β2β3 [1] of the same binder?
A: 37.2

Q: What about the ACh-evoked current, % of control, at 10 µM peptide [2] of the same binder?
A: 102 % of control

Q: And the Ki [3]?
A: 0.3 nM

B3: α-Conotoxin MII analog N14A (peptide)
peptide: GCCSNPVCHLEHSALC
modifications: not checked
Q: With B3 as the binder, how does the Ratio: IC50 α3β2/IC50 α6/α3β2β3 [1] read?
A: 24.2

Q: And the IC50, block of ACh-induced current in X. laevis oocytes [4]?
A: 1.06 nM

Q: And the t1/2 for recovery from toxin block [4]?
A: > 25 min

B4: α-Conotoxin MII analog S13A (peptide)
peptide: GCCSNPVCHLEHANLC
modifications: not checked
Q: Which Ratio: IC50 α3β2/IC50 α6/α3β2β3 [1] does the source give for B4 here?
A: 3.85

Q: And the t1/2 for recovery from toxin block [4]?
A: > 25 min

B5: α-Conotoxin MII analog S4A (peptide)
peptide: GCCANPVCHLEHSNLC
modifications: not checked
Q: B5 was tested. Which Ratio: IC50 α3β2/IC50 α6/α3β2β3 [1] did it give?
A: 21.6

Q: What about the t1/2 for recovery from toxin block [4] of the same binder?
A: > 25 min

B6: α-Conotoxin MII analog V7A (peptide)
peptide: GCCSNPACHLEHSNLC
modifications: not checked
Q: With B6 as the binder, how does the Ratio: IC50 α3β2/IC50 α6/α3β2β3 [1] read?
A: 0.421

Q: And the IC50, block of ACh-induced current in X. laevis oocytes [4]?
A: 10.6 nM

B7: α-Conotoxin MII analog P6A (peptide)
peptide: GCCSNAVCHLEHSNLC
modifications: not checked
Q: Which Ratio: IC50 α3β2/IC50 α6/α3β2β3 [1] does the source give for B7 here?
A: 17.5

B8: α-Conotoxin MII analog N5A (peptide)
peptide: GCCSAPVCHLEHSNLC
modifications: not checked
Q: With B8 as the binder, how does the Ratio: IC50 α3β2/IC50 α6/α3β2β3 [1] read?
A: > 12.6

B9: α-Conotoxin MII analog L10A (peptide)
peptide: GCCSNPVCHAEHSNLC
modifications: not checked
Q: B9 was tested. Which Ratio: IC50 α3β2/IC50 α6/α3β2β3 [1] did it give?
A: 3.05

Q: And the t1/2 for recovery from toxin block [4]?
A: > 25 min

B10: α-Conotoxin MII analog E11A (peptide)
peptide: GCCSNPVCHLAHSNLC
modifications: not checked
Q: Which IC50, block of ACh-induced current in X. laevis oocytes [5] does the source give for B10 here?
A: > 10000 nM

Q: And the Ratio: nAChR subtype IC50/α6/α3β2β3 IC50 [5]?
A: > 62500

Q: And the IC50, block of ACh-induced current in X. laevis oocytes [6]?
A: > 10000 nM

Q: What about the Ratio: nAChR subtype IC50/α6/α3β2β3 IC50 [6] of the same binder?
A: > 62500

Q: And the Ratio: nAChR subtype IC50/α6/α3β2β3 IC50 [7]?
A: 0.962

Q: What about the IC50 Rat α3β2, functional block of ACh-induced current [1] of the same binder?
A: 8.7 nM

Q: And the Ratio: IC50 α3β2/IC50 α6/α3β2β3 [1]?
A: 54.5

Q: What about the Ratio: nAChR subtype IC50/α6/α3β2β3 IC50 [1] of the same binder?
A: 54.5

Q: What about the IC50, block of ACh-induced current in X. laevis oocytes [8] of the same binder?
A: 2100 nM

Q: And the Ratio: nAChR subtype IC50/α6/α3β2β3 IC50 [8]?
A: 13100

Q: And the IC50, block of ACh-induced current in X. laevis oocytes [9]?
A: > 10000 nM

Q: What about the Ratio: nAChR subtype IC50/α6/α3β2β3 IC50 [9] of the same binder?
A: > 62500

Q: What about the Ratio: nAChR subtype IC50/α6/α3β2β3 IC50 [10] of the same binder?
A: 40.3

Q: And the IC50, block of ACh-induced current in X. laevis oocytes [11]?
A: 1050 nM

Q: And the Ratio: nAChR subtype IC50/α6/α3β2β3 IC50 [11]?
A: 6570

Q: What about the Ki [3] of the same binder?
A: 0.27 nM

B11: α-Conotoxin MII analog L10A; L15A (peptide)
peptide: GCCSNPVCHAEHSNAC
modifications: not checked
Q: B11 was tested. Which Ratio: IC50 α3β2/IC50 α6/α3β2β3 [1] did it give?
A: 9.56

Q: And the IC50, block of ACh-induced current in X. laevis oocytes [4]?
A: 1.8 nM

B12: α-Conotoxin MII analog H12A (peptide)
peptide: GCCSNPVCHLEASNLC
modifications: not checked
Q: Which Ratio: IC50 α3β2/IC50 α6/α3β2β3 [1] does the source give for B12 here?
A: 7.72

Q: What about the IC50, block of ACh-induced current in X. laevis oocytes [4] of the same binder?
A: 604 nM

B13: α-Conotoxin MII analog H9A; L15A (peptide)
peptide: GCCSNPVCALEHSNAC
modifications: not checked
Q: How did the ACh response, percentage of control, at 1 µM MII[H9A; L15A] [5] turn out when B13 was run?
A: 100 % of control

Q: What about the ACh response, percentage of control, at 10 µM MII[H9A; L15A] [5] of the same binder?
A: 99 % of control

Q: What about the ACh response, percentage of control, at 1 µM MII[H9A; L15A] [6] of the same binder?
A: 103 % of control

Q: What about the ACh response, percentage of control, at 10 µM MII[H9A; L15A] [6] of the same binder?
A: 102 % of control

Q: And the ACh response, percentage of control, at 1 µM MII[H9A; L15A] [2]?
A: 101 % of control

Q: What about the ACh response, percentage of control, at 10 µM MII[H9A; L15A] [2] of the same binder?
A: 98.5 % of control

Q: What about the ACh response, percentage of control, at 1 µM MII[H9A; L15A] [9] of the same binder?
A: 95.9 % of control

Q: What about the ACh response, percentage of control, at 10 µM MII[H9A; L15A] [9] of the same binder?
A: 96.7 % of control

Q: And the ACh response, percentage of control, at 1 µM MII[H9A; L15A] [11]?
A: 100 % of control

Q: What about the ACh response, percentage of control, at 10 µM MII[H9A; L15A] [11] of the same binder?
A: 61.4 % of control

Q: And the Ki [3]?
A: 3.3 nM

B14: α-Conotoxin MII analog H9A (peptide)
peptide: GCCSNPVCALEHSNLC
modifications: not checked
Q: What does the source list for B14?
A: IC50, block of ACh-induced current in X. laevis oocytes [1]: 59 nM; IC50 Rat α3β2, functional block of ACh-induced current [1]: 59 nM; Ratio: IC50 α3β2/IC50 α6/α3β2β3 [1]: 74.7; ACh-evoked current, % of control, at 10 µM peptide [2]: 106 % of control; Ki [3]: 1.1 nM

B15: α-Conotoxin MII analog S4A; H9A (peptide)
peptide: GCCANPVCALEHSNLC
modifications: not checked
Q: What does the source list for B15?
A: IC50, block of ACh-induced current in X. laevis oocytes [1]: 207 nM; Ratio: IC50 α3β2/IC50 α6/α3β2β3 [1]: 105
